The list shows a part of the results. Measured potencies and affinities stand elsewhere. Calls of active or inactive are those of the source.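 Rule for the calls: active = compound inhibiting the enzyme by more than half at any dose during confirmatory dose-response retesting; inconclusive = strong single-dose inhibitors picked by rank but not retested; inactive = the rest.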
target: Leucine aminopeptidase (Plasmodium falciparum (isolate 3D7)) (UniProt Q8IL11); experiment: P. falciparum M17LAP inhibitors, primary screen, biochemical, fluorogenic H-Leu-NHMec substrate, 1536-well (AID 1619); settings: recombinant M17LAP, H-Leu-NHMec fluorogenic kinetic assay; at 30 µM; active compounds read high;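 note: plate controls were full reaction with DMSO carrier for no effect and no enzyme background for full effect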

Protein sequences, listed by entry. Tags and fused reporters are not part of them. Lines headed by an entry give the natural chain unless they say otherwise; changes in a name come on top.
UniProt Q8IL11: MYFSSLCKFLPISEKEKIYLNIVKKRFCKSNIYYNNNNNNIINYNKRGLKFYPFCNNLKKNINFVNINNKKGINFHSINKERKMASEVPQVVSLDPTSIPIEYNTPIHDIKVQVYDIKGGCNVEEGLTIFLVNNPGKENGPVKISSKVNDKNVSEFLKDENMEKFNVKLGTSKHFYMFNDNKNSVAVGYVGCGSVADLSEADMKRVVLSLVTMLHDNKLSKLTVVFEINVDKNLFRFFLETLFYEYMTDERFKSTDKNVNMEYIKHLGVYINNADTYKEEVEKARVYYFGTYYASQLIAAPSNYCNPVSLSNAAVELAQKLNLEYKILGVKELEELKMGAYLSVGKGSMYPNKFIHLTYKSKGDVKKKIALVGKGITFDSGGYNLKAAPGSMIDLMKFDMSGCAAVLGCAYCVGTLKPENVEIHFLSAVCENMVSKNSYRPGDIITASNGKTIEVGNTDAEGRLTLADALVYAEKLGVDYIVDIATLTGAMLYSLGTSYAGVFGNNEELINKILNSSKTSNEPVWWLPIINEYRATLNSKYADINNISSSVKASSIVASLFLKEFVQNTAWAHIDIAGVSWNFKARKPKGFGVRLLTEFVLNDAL

Structure (SMILES)	inhibition
O=P(Nc1nccs1)(c1ccccc1)c1ccccc1	inactive: -1.29%
Clc1n[nH]nc1-c1nn[nH][15n]1	inactive: 16.1%
CC(C)(C)C(=O)NC(Sc1ncccn1)C(Cl)(Cl)Cl (stereo not given)	inactive: 3.64%
O=P1(Nc2ccccn2)COc2ccccc2OC1	inactive: 5.76%
CCOP(=O)(Nc1ccc(C)cn1)OCC	inactive: -3.67%
CC(C)/C=N\N=C(\N)N[N+](=O)[O-]	inactive: -3.47%
CN(C(=O)Cc1ccc(Cl)c(Cl)c1)[C@@H]1CCCC[C@H]1N1CCCC1	inactive: 1.28%
O=[As](O)(c1ccccc1Br)c1ccccc1Br	inactive: -13.3%
CN(C)C1(CNC(=O)c2ccc(S(C)(=O)=O)cc2)CCCCC1	inactive: 3.43%
O=C(/C=C/c1ccccc1)OC1CN2CCC1CC2 (stereo not given)	inactive: -8.73%
Cc1nn(-c2ccccc2)c2c1P(=O)(N1CCOCC1)N(C)C(c1ccccc1)=N2 (stereo not given)	inactive: -2.87%
CC1CCC(C(C)C)C(OP(=O)(Nc2ccccn2)c2ccccc2)C1 (stereo not given)	inactive: -3.2%
Nc1cccc([As](=O)(O)c2ccccc2)c1	inactive: 1.54%
O=P1(Nc2ccc(Br)cn2)COc2ccccc2OC1	inactive: 20%
O=[As](O)(c1cccs1)c1cccs1	inactive: 3.97%
Cc1ccc(OCC(=O)OC2CN3CCC2CC3)cc1 (stereo not given)	inactive: -16.4%
O=P1(Nc2ncccn2)COc2ccccc2OC1	inactive: 13.8%
Nc1ccccc1[As](=O)(O)c1ccccc1	inactive: -1.33%
O=C(O)COc1ccc([As](=O)(O)O)cc1[N+](=O)[O-]	inactive: 2.09%
CCOP1(=S)c2c(C)nn(CCC#N)c2N=C(c2ccccc2F)N1C (stereo not given)	inactive: 5.4%
O=P(Nc1nccs1)(c1ccccc1)c1nc2ccccc2s1 (stereo not given)	inactive: -7.53%
O=P(Nc1nccs1)(Oc1ccccc1)Oc1ccccc1	inactive: 1.11%
CS(=O)(=O)c1cc([N+](=O)[O-])c2no[n+]([O-])c2c1	inactive: 31.9%
CCOP1(=S)c2c(C)nn(CCC#N)c2N=C(c2ccc(F)cc2)N1C (stereo not given)	inactive: -0.21%
CN(C(=O)Cc1ccccc1)[C@@H]1CC[C@]2(CCCO2)C[C@H]1N1CCCC1	inactive: 1.56%
O=[N+]([O-])c1ccc2c(c1)nnn2O	inactive: -8.02%
NC(=O)Nc1ccc([As](=O)(O)O)cc1	inactive: -3.12%
O=[As](O)(c1cccc(O)c1)c1cccc(O)c1	inactive: 4.61%
Cc1cccc(OCC(=O)OC2CN3CCC2CC3)c1 (stereo not given)	inactive: -16%
O=C(OC1CN2CCC1CC2)c1ccc(Cl)cc1 (stereo not given)	inactive: 5.29%
